A mixed list of measured activities; the numbers were collected in NIAID ChemDB.

All rows: whole-cell or culture tests; agent: Enterococcus faecalis

A number after MIC or MFC names an inhibition level or a share of isolates. Two numbers with a dash give a range or band. Blank or dashed fields: not listed here. Neighbouring rows are from separate reports.

smiles | strain | read-out | value
N#Cc1cnn(-c2ccc(C3=NO[C@@H](CNC(=O)O)C3)cc2F)c1 | UC9217 | MIC | 4 µg/mL
CN(C)c1cc(NC(=O)CNC(C)(C)C)c(O)c2c1C[C@H]1C[C@H]3[C@H](N(C)C)C(=O)C(C(N)=O)=C(O)[C@@]3(O)C(=O)C1=C2O | 20 strains (vancomycin-susceptible) | MIC50 | 0.12 µg/mL
COc1c(N2CC[C@@H]([C@H](C)NCC3=C(C(=O)O)N4C(=O)[C@@H](NC(=O)COc5ccccc5)C4SC3)C2)c(F)cc2c(=O)c(C(=O)O)cn(C3CC3)c12 |  | MIC | 24 µg/mL
O=C(Nc1cccc(C2=NCCN2)c1)Nc1cccc(C(F)(F)F)c1 | STD44 | MIC | >300 µM
CC(=O)NC[C@H]1CN(c2ccc(C3CCS(=O)(=O)CC3)c(F)c2)C(=O)O1 | UC9217 | MIC | 1 µg/mL
COc1ccc(-c2ccc(C3=CC(CNC(C)=O)OC3=O)cc2)ccc1=O | UC9217 | MIC | 1 µg/mL
CC(=O)NC[C@H]1CN(c2ccc(-n3cnc(C=CC#N)c3)c(F)c2)C(=O)O1 |  | MIC | 0.25 µg/mL
CC[C@H]1OC(=O)[C@H](C)C(=O)[C@H](C)[C@@H](O[C@@H]2O[C@H](C)C[C@H](N(C)C)[C@H]2O)[C@](C)(OC)C[C@@H](C)C(=O)[C@H](C)[C@H]2N(CCCCn3cnc(-c4cccnc4)c3)C(=O)O[C@]12C |  | MIC90 | 2–4 µg/mL
O=C(NNC(=O)NC1CCCCC1)Nc1cc(C(F)(F)F)cc(C(F)(F)F)c1 | STD44 | MIC | 200 µM
O=C(O)NC[C@H]1CC(c2ccc(-n3ccnc3)c(F)c2)=NO1 | UC9217 | MIC | 4 µg/mL
CC(=O)NC[C@H]1CN(c2ccc(-c3cnn(C(c4ccccc4)(c4ccccc4)c4ccccc4)c3)c(F)c2)C(=O)O1 | UC9217 | MIC | >32 µg/mL
O=C(Nc1cc(C(F)(F)F)cc(C(F)(F)F)c1)NS(=O)(=O)c1ccc(OC(F)(F)F)cc1 | STD44 | MIC | >200 µM
CC(=O)NC[C@H]1CN(c2ccc(-c3nsc(C#N)n3)c(F)c2)C(=O)O1 | UC9217 | MIC | 8 µg/mL
O=C(NNC(=O)Nc1ccccc1C(F)(F)F)Nc1cc(C(F)(F)F)cc(C(F)(F)F)c1 | STD44 | MIC | >300 µM
CC(=O)NC[C@H]1CN(c2ccc(-c3cc(C#N)cs3)c(F)c2)C(=O)O1 | UC9217 | MIC | ≤0.5 µg/mL
O=C(Nc1cccc(C2=NCCN2)c1)Nc1cccc(C2=NCCN2)c1 | STD44 | MIC | >300 µM
CC(=O)NC[C@H]1CN(c2ccc(-c3ccnn3C)c(F)c2)C(=O)O1 | UC9217 | MIC | ≤0.5 µg/mL
O=C(NNC(=O)Nc1cc(C(F)(F)F)cc(C(F)(F)F)c1)Nc1ccccc1 | STD44 | MIC | >200 µM
CC(=O)NC[C@H]1CN(c2ccc(-c3cnn(Cc4ccccc4)c3)c(F)c2)C(=O)O1 | UC9217 | MIC | 4 µg/mL
CCC(=O)NC[C@H]1CN(c2ccc(C3CCS(=O)(=O)CC3)c(F)c2)C(=O)O1 | UC9217 | MIC | 2 µg/mL
O=C(Nc1cc(C(F)(F)F)cc(C(F)(F)F)c1)NN1CCOCC1 | STD44 | MIC | 164 µM
CC(=O)NC[C@H]1CN(c2ccc(-c3ccsc3)c(F)c2)C(=O)O1 | UC9217 | MIC | 0.5 µg/mL
O=C(NCCO)NNC(=O)Nc1cc(C(F)(F)F)cc(C(F)(F)F)c1 | STD44 | MIC | >300 µM
CC(=O)NC[C@H]1CN(c2ccc(-c3cccs3)c(F)c2)C(=O)O1 | UC9217 | MIC | 0.5 µg/mL

For reference, 3 entries again:

smiles,strain,read-out,value
N#Cc1cnn(-c2ccc(C3=NO[C@@H](CNC(=O)O)C3)cc2F)c1,UC9217,MIC,4 µg/mL
O=C(Nc1cc(C(F)(F)F)cc(C(F)(F)F)c1)NS(=O)(=O)c1ccc(OC(F)(F)F)cc1,STD44,MIC,>200 µM
O=C(NNC(=O)Nc1ccccc1C(F)(F)F)Nc1cc(C(F)(F)F)cc(C(F)(F)F)c1,STD44,MIC,>300 µM